This note sets out measurements from article PMC3656097, “Identification of Fibroblast Growth Factor Receptor 3 (FGFR3) as a Protein Receptor for Botulinum Neurotoxin Serotype A (BoNT/A)” (2013).

Assay [1] concerns the target recombinant binding domain of BoNT/A, His-rHC/A (Clostridium botulinum).
The target is the same in assay [2]. The source holds these as a separate data set.

Like-named read-outs stand apart in the source and are kept apart here.

On to FGFR3b Loop 2,3, for which, in assay [1], the Kd (commonly the concentration at which binding is half-saturated) was found to be 15 nM; the koff – broadly, the first-order rate constant of dissociation – is 0.00024 s⁻¹; the kon (commonly a measure of how fast the partners come together) came out at 17700 M⁻¹ s⁻¹. Moreover, in assay [2], the Kd came out at 15.1 nM, the koff stood at 0.000262 s⁻¹ and the kon stood at 17300 M⁻¹ s⁻¹.
For SV2C_(529–579), in assay [1], the dissociation constant Kd was 105 nM, the koff was determined as 0.000247 s⁻¹ and the kon was determined as 2340 M⁻¹ s⁻¹. Besides, in assay [2], the Kd worked out at 96.2 nM, the koff stood at 0.000124 s⁻¹ and the association rate constant (kon) amounted to 1290 M⁻¹ s⁻¹.
